Measured values from several laboratories, pooled; numbers as filed in NIAID ChemDB.

All rows: toxicity to cultured cells; cell line: PRK; endpoint: CC50

CCn: concentration that lowers growth or viability of the cells by n%. Conditions beyond the fields shown may differ between rows.

O=c1[nH]c(=O)n([C@@H]2OC3COP(=O)(O)OC3[C@H]2O)cc1Cl ; value: >400 µg/mL
NC1CCCON2CCc3c([nH]c4ccccc34)[C@H]12 ; value: 400 µg/mL
Nc1ncnc2c1ncn2C1CC(COP(=O)(O)O)[C@@H](O)[C@H]1O ; value: 20 µg/mL
COc1ccc2[nH]c3c(c2c1)CCN1OCSCC(N)[C@@H]31 ; value: ≥1 µg/mL
Cc1nc(C(C)C)c2[nH]c(=S)[nH]c(=O)n12 ; value: 200 µg/mL
Nc1nc(=O)n([C@H]2C[C@H](O)[C@@H](CO)O2)cc1/C=C\Cl ; value: >200 µg/mL
O=c1[nH]c(=O)n([C@@H]2OC3COP(=O)(O)OC3[C@H]2O)cc1I ; value: >400 µg/mL
Cc1nc(CC(O)CO)c2nc[nH]c(=O)n12 ; value: >400 µg/mL
Nc1ncnc2c1ncn2[C@H]1C[C@@H](CO)[C@H](O)[C@@H]1O ; value: >400 µg/mL
N=C(N)CCNC(=O)c1c[nH]c(NC(=O)c2c[nH]c(NC(=O)/C=C/C(=O)Nc3c[nH]c(C(=O)Nc4c[nH]c(C(=O)NCCC(=N)N)c4)c3)c2)c1 ; value: ≥40 µg/mL
[N-]=[N+]=N[C@H]1[C@@H](F)[C@H](n2cnc3c(N)ncnc32)O[C@@H]1CO ; value: >400 µg/mL
C=CCc1nc(C)n2c(=O)[nH]cnc12 ; value: 100 µg/mL
O=c1[nH]c(=O)n([C@H]2C[C@H](O)[C@@H](CO)O2)cc1/C=C/Br ; value: >400 µg/mL
Nc1ncnc2c1ncn2[C@@H]1O[C@H](CO)[C@@H](F)[C@H]1O ; value: >40 µg/mL
O=c1[nH]c(=O)n([C@H]2C[C@@H](CO)[C@H](O)C2)cc1I ; value: ≥400 µg/mL
COc1nc(=O)n([C@H]2C[C@H](O)[C@@H](CO)O2)cc1/C=C/Cl ; value: 200 µg/mL
N=C(N)CCNC(=O)c1c[nH]c(NC(=O)c2c[nH]c(NC(=O)c3c[nH]c(NC(=O)CCC(=O)Nc4c[nH]c(C(=O)Nc5c[nH]c(C(=O)Nc6c[nH]c(C(=O)NCCC(=N)N)c6)c5)c4)c3)c2)c1 ; value: ≥40 µg/mL
O=c1[nH]c(=O)n([C@H]2C[C@H](O)[C@@H](CO)O2)cc1I ; value: >400 µg/mL
[N-]=[N+]=N[C@H]1[C@@H](F)[C@H](N2C=CC(N)NC2=O)O[C@@H]1CO ; value: >400 µg/mL
N=C(N)CCNC(=O)c1c[nH]c(NC(=O)c2c[nH]c(NC(=O)c3ccc(CC(=O)Nc4c[nH]c(C(=O)Nc5c[nH]c(C(=O)NCCC(=N)N)c5)c4)cc3)c2)c1 ; value: ≥10 µg/mL

Repeating the final 2 entries:

{"smiles": "[N-]=[N+]=N[C@H]1[C@@H](F)[C@H](N2C=CC(N)NC2=O)O[C@@H]1CO", "value": ">400 µg/mL"}
{"smiles": "N=C(N)CCNC(=O)c1c[nH]c(NC(=O)c2c[nH]c(NC(=O)c3ccc(CC(=O)Nc4c[nH]c(C(=O)Nc5c[nH]c(C(=O)NCCC(=N)N)c5)c4)cc3)c2)c1", "value": "≥10 µg/mL"}